Laboratory results: patent publication US20190359693A1, “Binding molecules directed against influenza hemagglutinin and uses thereof” (Janssen / Centocor, published 2019)
Read-outs that look alike come from different tables or passages of the source.

Assays:
[1] = biological target: recombinant HA of H3N2 A/Wisconsin/67/05 (influenza A virus); assay: biolayer interferometry (Octet), steady-state fit, geometric mean
[2] = biological target: recombinant HA of H3N2 A/Brisbane/10/2007 (influenza A virus); assay: as above
[3] = biological target: recombinant HA of H7N3 A/NIBRG/60 (A/mallard/NL/12/00) (influenza A virus); assay: as above
[4] = biological target: HA of H1N1 A/California/07/2009 (influenza A virus); assay: cell-based or functional assay
[5] = biological target: hemagglutinin (HA) of influenza A/Brisbane/10/07 (H3N2) (influenza A virus A/Brisbane/10/07 …); assay: cell-based or functional assay
[6] = biological target: hemagglutinin (HA) of influenza A/California/07/09 (H1N1) (influenza A virus A/California/07/09 …); assay: cell-based or functional assay
[7] = biological target: hemagglutinin (HA) of influenza A/New Caledonia/20/99 (H1N1) (influenza A virus A/New Caledonia/20/99 …); assay: cell-based or functional assay
[8] = biological target: hemagglutinin (HA) of influenza A/Vietnam/1194/04 (H5N1) (influenza A virus A/Vietnam/1194/04 …); assay: cell-based or functional assay
[9] = biological target: hemagglutinin (HA) of influenza A/Hong Kong/1/68 (H3N2) (influenza A virus A/Hong Kong/1/68 …, UniProt Q91MA7 17-566); assay: cell-based or functional assay
[10] = biological target: hemagglutinin (HA) of influenza virus H5N1 A/Vietnam/1194/04 (influenza A virus); assay: cell-based or functional assay
[11] = biological target: hemagglutinin (HA) of influenza virus H3N2 A/Wisconsin/67/05 (influenza A virus); assay: cell-based or functional assay
[12] = biological target: hemagglutinin (HA) of influenza virus H1N1 A/California/07/09 (influenza A virus); assay: cell-based or functional assay
[13] = biological target: hemagglutinin (HA) of influenza A/NIBRG/60 (A/mallard/Netherlands/12/00) (H7N3) (influenza A virus …); assay: cell-based or functional assay
[14] = biological target: HA of H1N1 A/California/07/2009 (influenza A virus); assay: cell-based or functional assay; remark: listed apart in the source
[15] = biological target: HA of B/Brisbane/60/2008 (Victoria) (influenza B virus); assay: AlphaLISA competition vs SD1084
[16] = biological target: HA of B/Brisbane/60/2008 (Victoria) (influenza B virus); assay: cell-based or functional assay
[17] = biological target: HA of B/Florida/04/2006 (Yamagata) (influenza B virus); assay: cell-based or functional assay
[18] = biological target: HA of B/Brisbane/60/2008 (Victoria) (influenza B virus); assay: AlphaLISA competition vs CR9114
[19] = biological target: HA of B/Florida/04/2006 (Yamagata) (influenza B virus); assay: AlphaLISA competition vs CR9114
[20] = biological target: HA of B/Florida/04/2006 (Yamagata) (influenza B virus); assay: AlphaLISA competition vs CR8033
[21] = biological target: HA of B/Brisbane/60/2008 (Victoria) (influenza B virus); assay: BLI steady state
[22] = biological target: HA of B/Brisbane/60/2008 (Victoria) (influenza B virus); assay: cell-based or functional assay; remark: listed apart in the source
[23] = biological target: HA of B/Florida/04/2006 (Yamagata) (influenza B virus); assay: cell-based or functional assay; remark: listed apart in the source
[24] = biological target: HA of B/Brisbane/60/2008 (Victoria) (influenza B virus); assay: AlphaLISA competition vs SD1087
[25] = biological target: HA of H3N2 A/Brisbane/10/2007 (influenza A virus); assay: AlphaLISA competition vs SD1038
[26] = biological target: HA of B/Brisbane/60/2008 (Victoria) (influenza B virus); assay: AlphaLISA competition vs CR8071
[27] = biological target: HA of B/Florida/04/2006 (Yamagata) (influenza B virus); assay: AlphaLISA competition vs CR8071
[28] = biological target: hemagglutinin (HA) of influenza virus B/Brisbane/60/08 (Victoria) (influenza B virus); assay: cell-based or functional assay
[29] = biological target: hemagglutinin (HA) of influenza virus B/Harbin/7/94 (Yamagata) (influenza B virus); assay: cell-based or functional assay
[30] = biological target: hemagglutinin (HA) of influenza virus B/Florida/04/06 (Yamagata) (influenza B virus); assay: cell-based or functional assay
[31] = biological target: hemagglutinin (HA) of influenza virus B/Malaysia/2506/04 (Victoria) (influenza B virus); assay: cell-based or functional assay
[32] = biological target: HA of H3N2 A/Wisconsin/67/2005 (influenza A virus); assay: AlphaLISA competition vs CR8020
[33] = biological target: HA of H3N2 A/Brisbane/10/2007 (influenza A virus); assay: AlphaLISA competition vs CR8020
[34] = biological target: HA of H5N1 A/Vietnam/1203/2004 (influenza A virus); assay: AlphaLISA competition vs CR9114
[35] = biological target: HA of H3N2 A/Wisconsin/67/2005 (influenza A virus); assay: AlphaLISA competition vs CR9114
[36] = biological target: HA of H3N2 A/Brisbane/10/2007 (influenza A virus); assay: AlphaLISA competition vs CR9114
[37] = biological target: HA of H1N1 A/New Caledonia/20/1999 (influenza A virus); assay: AlphaLISA competition vs CR9114
[38] = biological target: HA of H3N2 A/Wisconsin/67/2005 (influenza A virus); assay: AlphaLISA competition vs CR8057
[39] = biological target: HA of H3N2 A/Brisbane/10/2007 (influenza A virus); assay: AlphaLISA competition vs CR8057
[40] = biological target: HA of H1N1 A/Brisbane/59/07 (influenza A virus); assay: cell-based or functional assay
[41] = biological target: HA of H5N1 A/Vietnam/1194/04 (influenza A virus); assay: cell-based or functional assay
[42] = biological target: HA of H3N2 A/Wisconsin/67/2005 (influenza A virus); assay: cell-based or functional assay
[43] = biological target: HA of H7N3 A/NIBRG/60 (A/mallard/NL/12/00) (influenza A virus); assay: cell-based or functional assay
[44] = biological target: HA of H3N2 A/Brisbane/10/2007 (influenza A virus); assay: cell-based or functional assay
[45] = biological target: HA of H1N1 A/New Caledonia/20/1999 (influenza A virus); assay: cell-based or functional assay

B1: MD1211 (bispecific antibody)
chain: EVQLVESGGGLVQPGGSLRLSCAVSISIFDIYAMDWYRQAPGKQRDLVATSFRDGSTNYADSVKGRFTISRDNAKNTLYLQMNSLKPEDTAVYLCHVSLYRDPLGVAGGMGVYWGKGALVTVSSAAAGGGGSGGGGSGGGGSGGGGSGGGGSGGGGSGGGGSEVQLVESGGGLVQAGGSLKLSCAASGRTYAMGWFRQAPGKEREFVAHINALGTRTYYSDSVKGRFTISRDNAKNTEYLEMNNLKPEDTAVYYCTAQGQWRAAPVAVAAEYEFWGQGTQVTVSS
[1]
  Kd: 0.9 nM
[2]
  Kd: 1.8 nM
[3]
  Kd: 2.1 nM

B2: SD1076 (VHH)
VHH: EVQLVESGGGLVQAGGSLTLSCAGSGFAFSIATMGWYRQAPGKQRELVADITSGGSTNYADSVKGRFTISRDNAKNTVYLQMNSLKPEDTAVYYCNADSLATGWRQYSYWGKGTQVTVSS
notes: llama sdAb
[4]
  VNA titer: 3.1 nM

B3: SD1038 (VHH)
VHH: EVQLVESGGGLVQPGGSLRLSCAVSISIFDIYAMDWYRQAPGKQRDLVATSFRDGSTNYADSVKGRFTISRDNAKNTLYLQMNSLKPEDTAVYLCHVSLYRDPLGVAGGMGVYWGKGALVTVSS
[5]
  VNA IC50: 284 nM
[6]
  VNA IC50: 2 nM
[7]
  VNA IC50: 7 nM
[8]
  VNA IC50: 15 nM
[9]
  VNA IC50: 251 nM

B4: SD1038 (VHH)
VHH: B3 VHH
[10]
  neutralization titer: 30.1 nM
[11]
  neutralization titer: < 1000 nM
[12]
  neutralization titer: 17.5 nM

## TIFGIRVNTMG (Fc fusion) [FM1W3]
[13]
  Average neutralization titers: 8 nM

B5: SD1045 (VHH)
VHH: EVQLVESGGGLVQAGGSLRLSCAASGSSFSINVMGWYRQAPGKQREMVATITYGGSTNYVDSVKGRFTISRDNAKNTVYLQMNSLKPEDTAVYYCNSRLAQINYWGQGTQVTVSS
notes: llama sdAb
[14]
  VNA titer: 85.9 nM

B6: MD1212 (VHH)
chain: EVQLVESGGGLVQPGGSLRLSCAVSISIFDIYAMDWYRQAPGKQRDLVATSFRDGSTNYADSVKGRFTISRDNAKNTLYLQMNSLKPEDTAVYLCHVSLYRDPLGVAGGMGVYWGKGALVTVSSAAAGGGGSGGGGSGGGGSGGGGSGGGGSGGGGSGGGGSEVQLVESGGGLVQPGGSLRLSCAVSISIFDIYAMDWYRQAPGKQRDLVATSFRDGSTNYADSVKGRFTISRDNAKNTLYLQMNSLKPEDTAVYLCHVSLYRDPLGVAGGMGVYWGKGALVTVSS
[1]
  Kd: 0.8 nM
[2]
  Kd: 2.3 nM
[3]
  Kd: 1.5 nM

B7: SD1084 (VHH)
VHH: EVQLVESGGGLVQPGGSLKLSCAASGFTFSTSWMYWLRQAPGKGLEWVSVINTDGGTYYADSVKDRFTISRDNAKDTLYLQMSSLKSEDTAVYYCAKDWGGPEPTRGQGTQVTVSS
notes: llama sdAb
[15]
  pIC50: 9.7
[16]
  VNA titer: 20.5 nM
[17]
  VNA titer: 68.8 nM
[18]
  pIC50: 7.4
[19]
  pIC50: 8
[20]
  pIC50: 8.5
[21]
  Kd: 109 nM
[22]
  hemagglutination inhibition titer: 0.07 µg/mL
[23]
  hemagglutination inhibition titer: 0.42 µg/mL
[24]
  pIC50: < 7
[25]
  pIC50: < 7
[26]
  pIC50: < 7
[27]
  pIC50: < 7

B8: SD1084 (VHH)
VHH: B7 VHH
[28]
  neutralization titer: 20.5 nM
[29]
  neutralization titer: 240 nM
[30]
  neutralization titer: 68.8 nM
[31]
  neutralization titer: 34.9 nM

B9: SD1083 (VHH)
VHH: EVQLVESGGGLVQPGGSLRLSCAATGFTLENKAIGWFRQTPGSEREGVLCISKSGSWTYYTDSMRGRFTISRDNAENTVYLQMDSLKPEDTAVYYCATTTAGGGLCWDGTTFSRLASSWGQGTQVTVSS
[28]
  neutralization titer: 178 nM
[29]
  neutralization titer: 259 nM
[30]
  neutralization titer: 220 nM
[31]
  neutralization titer: 294 nM

B10: SD1014 (VHH)
VHH: EVQLVESGGGLVQAGGSLTLSCAASGRTYAMAWFRQAPGKEREFVAHINALGTRTYYSDSVKGRFTISRDNAKNTEYLQMNSLNPEDTAVYYCAAGGQWRAAPVADAAQYDFWGQGTQVTVSS
notes: llama sdAb
[18]
  pIC50: < 7
[32]
  pIC50: < 7
[33]
  pIC50: 7.2
[34]
  pIC50: < 7
[35]
  pIC50: < 7
[36]
  pIC50: 7.8
[37]
  pIC50: < 7
[38]
  pIC50: < 7
[39]
  pIC50: < 7
[40]
  VNA titer: > 1000 nM
[41]
  VNA titer: > 1000 nM
[42]
  VNA titer: > 1000 nM
[43]
  VNA titer: 137 nM
[44]
  VNA titer: > 1000 nM
[45]
  VNA titer: > 1000 nM
